A mixed list of measured activities; the numbers were collected in NIAID ChemDB.

MIC50, MIC90 and the like: level of inhibition, or share of isolates inhibited. Blank or dashed fields: not listed here. Rows are shuffled and stem from different studies. ECn is the concentration giving n% inhibition of infection, replication or growth. Percent inhibition refers to the dose given; in toxicity tests it is the harm to the cells. ICn is the concentration giving n% inhibition. CCn is the concentration with n% toxicity to the cells. a–b is a range or a potency band.

structure,organism,dose,method,cell line,kind,strain,read-out,protein,result
C=CCc1ccc(O)c(OC)c1,Candida tropicalis,,turbidity,,culture,3219,MIC90,,500 µg/mL
O=S(=O)([O-])c1ccc2c(O)cc(S(=O)(=O)[O-])cc2c1,Herpes simplex virus,50 µg/mL,cytopathic effect,Human conjunctiva cells,culture,,inhibition,,0%
O=c1cc(Nc2cccc(-c3ccccc3)c2)c2cccnc2n1O,,,,HeLa,toxicity,,CC50,,<100 µM
COc1cc(-c2ccc(N=Nc3ccc4c(S(=O)(=O)O)cc(S(=O)(=O)O)c(N)c4c3O)c(OC)c2)ccc1N=Nc1ccc2c(S(=O)(=O)O)cc(S(=O)(=O)O)c(N)c2c1O,Adenovirus,5 µg/mL,cytopathic effect,Human embryonic lung cells,culture,TYPE 3,inhibition,,0%
Cc1cccc(N2CCN(c3cncc(-c4cc5ccccc5s4)n3)CC2)c1C,Cytomegalovirus,,,,target,,IC50,UL97 kinase,<100 µM
O=C1C(c2[nH]c3ccc(S(=O)(=O)O)cc3c2O)=Nc2ccc(S(=O)(=O)O)cc21,Adenovirus,50 µg/mL,cytopathic effect,Human embryonic lung cells,culture,TYPE 3,inhibition,,0%
O=c1c2ccccc2c2cccnc2n1O,,,,HeLa,toxicity,,CC50,,<100 µM
Oc1ccccc1N=Cc1ccc2c(c1)OCO2,Cryptococcus gattii,,,,culture,196L/03,MIC99,,8 µg/mL
O=S(=O)([O-])c1ccccc1S(=O)(=O)[O-],Herpes simplex virus,10 µg/mL,cytopathic effect,Human amnion AV3 cells,culture,,inhibition,,0%
O=[N+]([O-])c1ccc(C=Nc2ccccc2O)cc1,Cryptococcus neoformans,,,,culture,ATCC 62066,MIC99,,2.8 µg/mL
Fc1ccc(N2CCCCC2)c(NC(=S)c2ccncc2)c1,,10 µM,kinase activity,,host protein,,inhibition,MST4,5.1%
Cc1cc(C)n(-c2cccc(-c3ccnc4c3c(O)cc(=O)n4O)c2)n1,,,,HeLa,toxicity,,CC50,,<100 µM
O=C(O)c1cnn2c(-c3ccc(Cl)cc3)c(-c3ccccc3)cnc12,Hepatitis C virus,,,,target,,IC50,RNA-dependent RNA polymerase,>10 µM
Fc1ccc(N2CCN(c3cncc(-c4csc5ccccc45)n3)CC2)cc1,Cytomegalovirus,,,,target,,IC50,UL97 kinase,<10 µM
C=CCCc1c(-c2ccc(OCc3ccccc3)cc2)nc2c(C(=O)O)c[nH]n2c1=O,Hepatitis C virus,,,,target,,IC50,RNA-dependent RNA polymerase,>10 µM
Cc1cccc(-c2cncc(N3CCN(c4ccccn4)CC3)n2)c1,Cytomegalovirus,,,,target,,IC50,UL97 kinase,<100 µM
CCOC(=O)c1ccc(OCCC2CCN(c3ccc(C)nn3)CC2)cc1,Rhinovirus,,neutral red,KB,culture,K2207 (ICAM-1 receptor group 72),EC50,,0.136 µM
N#Cc1cnn2c(C3CCCCC3)c(-c3ccc(O)cc3)cnc12,Hepatitis C virus,,,,target,,IC50,RNA-dependent RNA polymerase,>10 µM
Oc1ccccc1N=Cc1ccc(O)c(O)c1O,Cryptococcus gattii,,,,culture,547/OTTI-97-PI-10,MIC99,,22.6 µg/mL
CC(=O)c1ccc(-c2cncc(N3CCN(c4ccc(C)cc4C)CC3)n2)s1,Cytomegalovirus,,,,target,,IC50,UL97 kinase,<100 µM
Oc1ccccc1C=Nc1ccccc1O,Cryptococcus neoformans,,broth dilution,,culture,5396,MIC,,5.7 µg/mL
O=C(O)c1cc2nc(-c3cccc(Cl)c3)cc(-c3ccc(-c4ccccc4)cc3)n2n1,Hepatitis C virus,,,,target,,IC50,RNA-dependent RNA polymerase,1–10 µM
Nc1cc(S(=O)(=O)[O-])cc2cc(S(=O)(=O)[O-])ccc12,Herpes simplex virus,10 µg/mL,cytopathic effect,Human amnion AV3 cells,culture,,inhibition,,0%
CC(C)=CCCc1c(-c2ccc(OCc3ccccc3)cc2)nc2cc(C(=O)O)[nH]n2c1=O,Hepatitis C virus,,,,target,,IC50,RNA-dependent RNA polymerase,<1 µM
O=S(=O)([O-])c1ccc2c(NS(=O)(=O)c3ccccc3)cc(S(=O)(=O)[O-])cc2c1,Herpes simplex virus,50 µg/mL,cytopathic effect,Human conjunctiva cells,culture,,inhibition,,25%
Oc1ccccc1N=Cc1cccc(O)c1O,Cryptococcus neoformans,,,,culture,F-10,MIC99,,4 µg/mL
NCc1cccc(CNC(=O)Cc2c(O)c3cccnc3n(O)c2=O)c1,,,,HeLa,toxicity,,CC50,,<100 µM
O=C(O)c1cc2nc(-c3ccc(Cl)cc3)cc(-c3ccc(Cl)c(Cl)c3)n2n1,Hepatitis C virus,,,,target,,IC50,RNA-dependent RNA polymerase,>10 µM
O=[N+]([O-])c1cc([N+](=O)[O-])c2ccc(S(=O)(=O)O)cc2c1O,Adenovirus,10 µg/mL,cytopathic effect,Human embryonic lung cells,culture,TYPE 3,inhibition,,10%
COc1ccccc1N1CCN(c2cncc(-c3ccc(SC)cc3)n2)CC1,Cytomegalovirus,,,,target,,IC50,UL97 kinase,<10 µM
CSc1ccc(-c2cnc3c(C(=O)O)cnn3c2C2CCCCC2)cc1,Hepatitis C virus,,,,target,,IC50,RNA-dependent RNA polymerase,1–10 µM
COc1ccc(Cl)cc1-c1cncc(N2CCN(c3ccccc3OC)CC2)n1,Cytomegalovirus,10 µM,,,target,,inhibition,UL97 kinase,>15%
Oc1cccc(C=Nc2ccccc2O)c1,Cryptococcus neoformans,,,,culture,ATCC 62066,MIC99,,1.4 µg/mL
CCOC(=O)/C=C/[C@H](C[C@@H]1CCNC1=O)NC(=O)[C@@H](CC(=O)[C@@H](NC(=O)c1cc(C)on1)C(C)C)Cc1ccc(F)cc1,Rhinovirus,,cytopathic effect / visual reading,OHIO HELA-I,culture,Isolate 1,EC50,,0.02 µg/mL
Cc1nc(NCCCCNc2ccnc3cc(Cl)ccc23)nc(-c2ccccc2)c1C(=O)OC(C)C,Cryptococcus neoformans,,,,culture,C-3-1,MIC99,,2 µg/mL
NCCCC[C@H](NC(=O)c1cnn2c(C3CCCCC3)c(-c3ccc(F)cc3)cnc12)C(=O)O,Hepatitis C virus,,,,target,,IC50,RNA-dependent RNA polymerase,<1 µM
Cc1cc(-c2ccc(N=Nc3ccc4c(S(=O)(=O)O)cc(S(=O)(=O)O)c(N)c4c3O)c(C)c2)ccc1N=Nc1ccc2c(S(=O)(=O)O)cc(S(=O)(=O)O)c(N)c2c1O,Rhinovirus,10 µg/mL,cytopathic effect,Human amnion AV3 cells,culture,,inhibition,,0%
CC(Cc1ccc(O)cc1)(NC(=O)c1cnn2c(C3CCCCC3)c(-c3ccc(F)cc3)cnc12)C(=O)O,Hepatitis C virus,,,,target,,IC50,RNA-dependent RNA polymerase,<1 µM
CC(=O)N[C@H]1[C@H]([C@H](O)[C@H](O)CO)OC(C(=O)O)=C[C@@H]1N=C(N)N,Influenza A virus,,,MDCK,culture,H1N1 A/Bayern/09/95,EC50,,3.4 µM

The last 4 rows once more:

structure | organism | dose | method | cell line | kind | strain | read-out | protein | result
NCCCC[C@H](NC(=O)c1cnn2c(C3CCCCC3)c(-c3ccc(F)cc3)cnc12)C(=O)O | Hepatitis C virus |  |  |  | target |  | IC50 | RNA-dependent RNA polymerase | <1 µM
Cc1cc(-c2ccc(N=Nc3ccc4c(S(=O)(=O)O)cc(S(=O)(=O)O)c(N)c4c3O)c(C)c2)ccc1N=Nc1ccc2c(S(=O)(=O)O)cc(S(=O)(=O)O)c(N)c2c1O | Rhinovirus | 10 µg/mL | cytopathic effect | Human amnion AV3 cells | culture |  | inhibition |  | 0%
CC(Cc1ccc(O)cc1)(NC(=O)c1cnn2c(C3CCCCC3)c(-c3ccc(F)cc3)cnc12)C(=O)O | Hepatitis C virus |  |  |  | target |  | IC50 | RNA-dependent RNA polymerase | <1 µM
CC(=O)N[C@H]1[C@H]([C@H](O)[C@H](O)CO)OC(C(=O)O)=C[C@@H]1N=C(N)N | Influenza A virus |  |  | MDCK | culture | H1N1 A/Bayern/09/95 | EC50 |  | 3.4 µM